A mixed list of measured activities; the numbers were collected in NIAID ChemDB.

Common to all: target-level tests; organism: HIV-1; protein: Reverse transcriptase; measure: fold resistance

Blank or dashed fields: not listed here. a–b is a range or a potency band. Fold resistance: result on the changed form divided by that on wild type. Neighbouring rows are from separate reports.

structure,strain,method,changes,result
CCc1cc(NCc2nc3c(C)ccc(C)c3o2)c(=O)[nH]c1C,-,nucleotide incorporation,RT-Y188H,8.4
CCN1c2ncc(CCOc3ccc(N(C)c4ccc(C(=O)O)cc4)cc3C)cc2C(=O)N(C)c2cccnc21,IIIB,nucleotide incorporation / radiometric,RT-K103N Y181C,>1
CCN1c2ncc(CCOc3ccc(NC(=O)CC(C)(C)C(=O)O)c4ccccc34)cc2C(=O)N(C)c2cccnc21,-,nucleotide incorporation / radiometric,RT-V106A,>10
COC(=O)NCCCCNc1nc(Cc2ccccc2)c(C)c(=O)[nH]1,-,-,RT-V179D,>43.5
CCN1c2ncc(CCOc3ccc(-c4cncnc4)cc3)cc2C(=O)N(C)c2cccnc21,IIIB,nucleotide incorporation / radiometric,RT-K103N Y181C,>2
CCN1c2ncc(CCOc3ccc(C(=O)O)c4c3CCN(C(=O)N(C)C)C4)cc2C(=O)N(C)c2cccnc21,-,nucleotide incorporation / radiometric,RT-V106A,1–10
CCN1c2ncc(CCOc3ccc(N(CC(=O)O)C(C)=O)cc3C)cc2C(=O)N(C)c2cccnc21,IIIB,nucleotide incorporation / radiometric,RT-K103N Y181C,>2
CCN1c2ncc(CCOc3ccc(CC(=O)O)c4ccccc34)cc2C(=O)N(C)c2ccc(Cl)nc21,-,nucleotide incorporation / radiometric,RT-K103N Y181C,1–10
CCN1c2ncc(CCOc3ccc(NC(C)=O)cc3C)cc2C(=O)N(C)c2cccnc21,IIIB,nucleotide incorporation / radiometric,RT-K103N Y181C,>1
CCN1c2ncc(CCOc3ccc(CC(=O)O)c4ccccc34)cc2C(=O)N(C)c2ccc(C)nc21,-,nucleotide incorporation / radiometric,RT-Y188L,>10
CCN1c2ncc(CCOc3ccc(-c4cc(C)ccn4)cc3C)cc2C(=O)N(C)c2cccnc21,IIIB,nucleotide incorporation / radiometric,RT-K103N Y181C,1
CCNC(=O)N1CCc2c(OCCc3cnc4c(c3)C(=O)N(C)c3cccnc3N4CC)ccc(C(=O)O)c2C1,-,nucleotide incorporation / radiometric,RT-K103N Y181C,1–10
CCN1c2ncc(CCOc3ccc(NC(=O)c4ccc(C(=O)O)cc4)cc3C)cc2C(=O)N(C)c2cccnc21,IIIB,nucleotide incorporation / radiometric,RT-K103N Y181C,1
CC(C)=CCOc1cc(NC(=S)c2ccoc2C)ccc1Cl,-,-,RT-L74V,0.63
CCN1c2ncc(CCOc3ccc(CC(=O)O)c4ccccc34)cc2C(=O)N(C)c2cccnc21,-,nucleotide incorporation / radiometric,RT-K103N Y181C,1–10
CC(C)=CCOc1cc(NC(=S)c2ccsc2C)ccc1Cl,-,-,RT-V106A,2.5
Nc1nc2c(ncn2[C@H]2CC[C@@H](COP(=O)(O)OP(=O)(O)OP(=O)(O)O)O2)c(=O)[nH]1,-,nucleotide incorporation,RT-Y181I,0.833
O=c1cc(Cc2ccccc2)nc(SCCCCO)[nH]1,-,-,RT-Y181I,5.16
CCN1c2ncc(CCOc3ccc4cc(CC(=O)NN)ccc4c3)cc2C(=O)N(C)c2cccnc21,-,nucleotide incorporation / radiometric,RT-K103N Y181C,1–10
CCN1c2ncc(CCOc3ccc(-c4ccc(C(=O)O)cc4)cc3C)cc2C(=O)N(C)c2cccnc21,IIIB,nucleotide incorporation / radiometric,RT-K103N Y181C,1
NCCCCNc1nc(Cc2ccccc2)cc(=O)[nH]1,-,-,RT-Y181L,>14.3

Again, the opening 2 rows:

CCc1cc(NCc2nc3c(C)ccc(C)c3o2)c(=O)[nH]c1C ; method: nucleotide incorporation ; changes: RT-Y188H ; result: 8.4
CCN1c2ncc(CCOc3ccc(N(C)c4ccc(C(=O)O)cc4)cc3C)cc2C(=O)N(C)c2cccnc21 ; strain: IIIB ; method: nucleotide incorporation / radiometric ; changes: RT-K103N Y181C ; result: >1